Common to all, as to details: both partners purified
The target in test [1] is recombinant mouse prion protein immobilised for SPR (mPrP) (Mus musculus, UniProt P04925). Put plainly: SPR.
Test [2] addresses recombinant mouse PrP flexible tail fragment (rmPrP23-110) (Mus musculus, UniProt P04925). The test can be described thus: ELISA.
In test [3] the target is T1, recombinant wild-type murine PrP (rmPrP) immobilised for SPR (Mus musculus, UniProt P04925).
T1 construct: source: recombinant
Put plainly: SPR.

Chains of the proteins cited; added tags and fusions are not shown. Residues count along the entry.
UniProt P04925, 23-230: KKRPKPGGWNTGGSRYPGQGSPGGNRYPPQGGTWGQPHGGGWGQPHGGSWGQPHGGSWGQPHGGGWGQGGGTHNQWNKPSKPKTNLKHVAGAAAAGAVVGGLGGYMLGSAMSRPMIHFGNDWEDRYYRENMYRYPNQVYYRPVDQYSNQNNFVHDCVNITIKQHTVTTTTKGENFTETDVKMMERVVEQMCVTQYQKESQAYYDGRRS
UniProt P04925, 23-110: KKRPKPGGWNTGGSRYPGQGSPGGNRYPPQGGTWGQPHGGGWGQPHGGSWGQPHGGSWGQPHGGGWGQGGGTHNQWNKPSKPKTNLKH
UniProt P04925, 23-231: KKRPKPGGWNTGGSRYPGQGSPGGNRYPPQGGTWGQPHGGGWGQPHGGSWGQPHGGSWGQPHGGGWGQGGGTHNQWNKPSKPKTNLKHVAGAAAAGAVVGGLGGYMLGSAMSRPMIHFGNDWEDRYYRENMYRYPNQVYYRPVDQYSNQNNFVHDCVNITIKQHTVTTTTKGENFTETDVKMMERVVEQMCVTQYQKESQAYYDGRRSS

In test [4] the target is mPrP immobilized on the SPR sensor chip (rmPrP) (Mus musculus, UniProt P04925). Put plainly: SPR.
The target of test [5] is full-length, recombinant mouse prion protein (rmPrP23-231) (Mus musculus, UniProt P04925). Put plainly: FRET or BRET.

B1: POM1 single-chain variable fragment (scFv) (scFv, V domains shown)
VH: QVQLQQSGTELVMPGASVKMSCKASGYTFTDYWMHWVKQRPGQGLEWIGSIDPSDSYTSHNEKFKGKATLTVDESSSTAYMQLSSLTSEDSAVYFCSRSGYGYYAMEYWGQGTSVTVSS
VL: DIVLTQSPAILSVSPGERVSFSCRASQNIGTSIHWYQQRTNESPRLIIKYASESISGIPSRFSGSGSGTDFTLSINSVESEDIADYYCQQSNTWPYTFGGGTKLELK
notes: also called scPOM1; source: POM1 pET-22b(+) expression plasmid
Consider B1, for which the Kd in test [1] stood at 4.8 nM.

B2: holo-POM1 (POM1 as IgG holoantibody) (antibody, V domains shown)
VH: B1 VH
VL: B1 VL
notes: also called POM1 IgG
Take B2: in test [2], the binding result was “no binding”.

B3: POM1 (anti-PrP^C antibody; format not stated for the experiment) (antibody, V domains shown)
VH: B1 VH
VL: B1 VL
notes: also called scPOM1; wild-type POM1
Turning to B3, the Kd in test [3] came out at 0.25 nM.

B4: POM1 single-chain variable fragment (wild type) (scFv, V domains shown)
VH: B1 VH
VL: B1 VL
notes: also called wt; scPOM1; source: POM1 pET-22b(+) expression plasmid
Consider B4, for which the Kd in test [4] came to 5.08 nM; in test [5] it was 2.8 nM.

The values are drawn from article PMC9371974 (Nature Structural & Molecular Biology, 2022).
